# In article PMC9176655, “Nebulized fusion inhibitory peptide protects cynomolgus macaques from measles virus infection” (Research Square, 2022):
# Experiment: Safety and toxicology of nebulized peptide
# Details: noninfected animals, days 0, 1, 2, 3, 6 and 28, HRC4 4 mg/kg n=5 vs saline n=3
smiles,measurement,value
CC[C@H](C)[C@H](NC(=O)[C@H](C)NC(=O)[C@H](CC(N)=O)NC(=O)CNC(=O)[C@H](CC(C)C)NC(=O)[C@H](CC(N)=O)NC(=O)[C@@H](NC(=O)CNC(=O)[C@@H](NC(=O)[C@H](CC(=O)O)NC(=O)[C@H](CC(C)C)NC(=O)[C@H](CCCNC(=N)N)NC(=O)[C@H](CCC(=O)O)NC(=O)[C@H](CC(C)C)NC(=O)[C@H](CO)NC(=O)[C@@H](NC(=O)[C@@H]1CCCN1C(=O)[C@@H]1CCCN1)[C@@H](C)CC)C(C)C)[C@@H](C)O)C(=O)N[C@@H](C)C(=O)N[C@@H](CCCCN)C(=O)N[C@@H](CC(C)C)C(=O)N[C@@H](CCC(=O)O)C(=O)N[C@@H](CC(=O)O)C(=O)N[C@@H](C)C(=O)N[C@@H](CCCCN)C(=O)N[C@@H](CCC(=O)O)C(=O)N[C@@H](CC(C)C)C(=O)N[C@@H](CC(C)C)C(=O)N[C@@H](CCC(=O)O)C(=O)N[C@@H](CO)C(=O)N[C@@H](CO)C(=O)N[C@@H](CC(=O)O)C(=O)N[C@@H](CCC(N)=O)C(=O)N[C@H](C(=O)N[C@@H](CC(C)C)C(=O)N[C@@H](CCCNC(=N)N)C(=O)NCC(=O)N[C@@H](CO)C(=O)NCC(=O)N[C@@H](CO)C(=O)NCC(=O)N[C@@H](CSC1CC(=O)N(CCCC(=O)NCCOCCOCCOCCOCCC(=O)NCCN(CCNC(=O)CCOCCOCCOCCOCCNC(=O)CCCN2C(=O)CC(SC[C@H](NC(=O)CNC(=O)[C@H](CO)NC(=O)CNC(=O)[C@H](CO)NC(=O)CNC(=O)[C@H](CCCNC(=N)N)NC(=O)[C@H](CC(C)C)NC(=O)[C@@H](NC(=O)[C@H](CCC(N)=O)NC(=O)[C@H](CC(=O)O)NC(=O)[C@H](CO)NC(=O)[C@H](CO)NC(=O)[C@H](CCC(=O)O)NC(=O)[C@H](CC(C)C)NC(=O)[C@H](CC(C)C)NC(=O)[C@H](CCC(=O)O)NC(=O)[C@H](CCCCN)NC(=O)[C@H](C)NC(=O)[C@H](CC(=O)O)NC(=O)[C@H](CCC(=O)O)NC(=O)[C@H](CC(C)C)NC(=O)[C@H](CCCCN)NC(=O)[C@H](C)NC(=O)[C@@H](NC(=O)[C@H](C)NC(=O)[C@H](CC(N)=O)NC(=O)CNC(=O)[C@H](CC(C)C)NC(=O)[C@H](CC(N)=O)NC(=O)[C@@H](NC(=O)CNC(=O)[C@@H](NC(=O)[C@H](CC(=O)O)NC(=O)[C@H](CC(C)C)NC(=O)[C@H](CCCNC(=N)N)NC(=O)[C@H](CCC(=O)O)NC(=O)[C@H](CC(C)C)NC(=O)[C@H](CO)NC(=O)[C@@H](NC(=O)[C@@H]3CCCN3C(=O)[C@@H]3CCCN3)[C@@H](C)CC)C(C)C)[C@@H](C)O)[C@@H](C)CC)[C@@H](C)CC)C(=O)O)C2=O)CCO[C@H]2CC[C@@]3(C)C(=CC[C@H]4[C@@H]5CC[C@H]([C@H](C)CCCC(C)C)[C@@]5(C)CC[C@@H]43)C2)C1=O)C(=O)O)[C@@H](C)CC (stereo partly shown) [HRC4],Hematological and biochemical parameters in blood,did not show significant variations between groups
